Assay results reported in publication PMC9457583, “New Chemicals Suppressing SARS-CoV-2 Replication in Cell Culture” (Molecules, 2022).

Tested on: SARS-CoV-2
Format: cell-based

Structure (SMILES): CCC(CC)COC(=O)[C@H](C)N[P@](=O)(OC[C@H]1O[C@@](C#N)(c2ccc3c(N)ncnn23)[C@H](O)[C@@H]1O)Oc1ccccc1 [remdesivir, reference compound]
- SI (SI = CC50/EC50, Vero E6 cells): > 56 and 56.5

Structure (SMILES): Cc1ccc2c(c1)-c1c(ssc1=S)C(C)(C)N2C(=O)COc1ccc2ccccc2c1 [Compound 3c]
- SI (SI = CC50/EC50, Vero E6 cells): > 37 and >36.86

Structure (SMILES): Cc1ccc2c(c1)N(C(=O)COc1ccc3ccccc3c1)C(C)(C)c1ssc(=S)c1-2 [Compound 3b]
- SI (SI = CC50/EC50, Vero E6 cells): > 86 and >86.21

Structure (SMILES): Clc1ccc2nc(OCc3ccccc3Cl)c(N3CCOCC3)c(-c3ccccc3)c2c1 [Compound 6a, 6-chloro-2-[(2-chlorobenzyl)oxy]-3-(morpholin-4-yl)-4-phenylquinoline]
- SI (SI = CC50/EC50, Vero E6 cells): >45.1

Structure (SMILES): c1ccc(Nc2nc(Nc3ccccc3)nc(N3CCCCCC3)n2)cc1 [Compound 9b, 6-(azepan-1-yl)-N,N’-diphenyl-1,3,5-triazine-2,4-diamine]
- SI (SI = CC50/EC50, Vero E6 cells): >7.57

Structure (SMILES): CC1CCCCN1C(=S)Sc1c(-c2ccccc2)c2cc(Cl)ccc2[nH]c1=O (stereo not shown) [Compound 6c, 6-chloro-2-oxo-4-phenyl-1,2-dihydroquinolin-3-yl 2-methylpiperidine-1-carboditioate]
- SI: >1.2

Structure (SMILES): c1ccc2cc(Nc3nc(Nc4ccc5ccccc5c4)nc(N4CCCCCC4)n3)ccc2c1 [Compound 9a, 6-(azepan-1-yl)-N,N ^′ -di(naphthalen-2-yl)-1,3,5-triazine-2,4-diamine]
- SI (SI = CC50/EC50, Vero E6 cells): >11.9

Structure (SMILES): CN1CCN(c2nc(Nc3cccc4ccccc34)nc(Nc3cccc4ccccc34)n2)CC1 [Compound 9c, 6-(4-methylpiperazin-1-yl)-N,N ^′ -di(naphthalen-1-yl)-1,3,5-triazine-2,4-amine]
- SI (SI = CC50/EC50, Vero E6 cells): >1.62

Structure (SMILES): O=c1[nH]c2ccc(Cl)cc2c(-c2ccccc2)c1SC(=S)N1CCCCC1 [Compound 6b, 6-chloro-2-oxo-4-phenyl-1,2-dihydroquinolin-3-yl piperidine-1-carboditioate]
- SI: >4.75

Structure (SMILES): COc1ccc2c(c1)-c1c(ssc1=S)C(C)(C)N2C(=O)COc1ccc2ccccc2c1 [Compound 3d]
- SI (SI = CC50/EC50, Vero E6 cells): >10.64

Several values for one entry are separate records, joined by “and”; a condition that tells them apart may be missing. Equal values may be shown once. Read-outs that look alike come from different tables or passages of the source.
